Laboratory results: PubChem BioAssay AID504761 (Drosophila RNAi Screening Center, 2011)
Aim: 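Insect host genes that dengue virus relies on to spread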 (primary screen). System: D.Mel-2 cells from Drosophila. Reagents: long dsRNA against Drosophila genes. Conditions: infection with dengue virus type 2; dose and infection time not stated. Measured: 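Per well on two replicate plates, imaging gave the percent of cells positive for viral envelope protein, ranked by infection, and a nuclear count of cells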. Scale: infection score: higher = more virus-infected cells. Hit rule: 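Very low infection ranking in both replicate wells (chance probability at most 0.065), then a retest showing infection dropped 1.5-fold or more at p below 0.05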. Meaning of the calls: active = confirmed: knock-down lowers infection; inactive = not picked or not confirmed.
The screen tested about 22,000 reagents; this is an unselected part of those with a known target gene and a result. Of all reagents, 116 (0.52%) are marked active. 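Calls depend on retest data that are not deposited; infection was ranked per plate without normalising between plates; the unit of the infection score is not given.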 Entries without a mark were called inactive. The numbers tell different reagents against one gene apart. Further read-outs or replicates are left out here. No sequences are given here. Not stated in the record: the amount of reagent, the time to read-out.

Gr58c (GeneID 37501) — infection score, replicate 1: 3.52
CG32277 (GeneID 38393) — infection score, replicate 1: 0.47
Osi12 (GeneID 40766) — infection score, replicate 1: 2.39
CG32507 (GeneID 318060) — infection score, replicate 1: 5.43
CycC (GeneID 41801) — infection score, replicate 1: 12.4
sev (GeneID 32039) — infection score, replicate 1: 7.07
CG15186 (GeneID 40797) #1 — infection score, replicate 1: 5.27
CG15186 (GeneID 40797) #2 — infection score, replicate 1: 8.72
CG15258 (GeneID 34904) — infection score, replicate 1: 2.45
CG9992 (GeneID 32605) #1 — infection score, replicate 1: 4.12
CG9992 (GeneID 32605) #2 — infection score, replicate 1: 1.27
CG13895 (GeneID 38087) — infection score, replicate 1: 1.85
Prx6c (GeneID 36098) #1 — infection score, replicate 1: 15.9
Prx6c (GeneID 36098) #2 — infection score, replicate 1: 32
CG13285 (GeneID 38623) — infection score, replicate 1: 3.24
CG5623 (GeneID 41904) — infection score, replicate 1: 5.3
CG10211 (GeneID 35106) #1 — infection score, replicate 1: 12.5
CG10211 (GeneID 35106) #2 — infection score, replicate 1: 1.34
CCT5 (GeneID 36308) #1 — infection score, replicate 1: 23.4
CCT5 (GeneID 36308) #2 — infection score, replicate 1: 5.65
MICAL-like (GeneID 39475) — infection score, replicate 1: 3.39

Look-ups from the list:
CG15186 (GeneID 40797) #2, infection score, replicate 1 → 8.72
Value of CycC (GeneID 41801) under “infection score, replicate 1”: 12.4
